Measured data: PubChem BioAssay AID624099 (ICCB-Longwood, 2012)
The deposit covers about 21,000 reagents; below is a random part of them. Of all reagents, 497 (2.4%) are marked active. 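Higher z means weaker E2 silencing; only reporter increases were scored, and knock-downs that hurt cell survival may mask genuine repressor factors.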 The numbers tell different reagents against one gene apart.

- Purpose: 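Knock-downs relieving repression by E2 of an HPV18 LCR luciferase reporter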 (primary screen)
- System: human C33A cervical carcinoma cells (HPV-negative) stably expressing BPV1 E2 and an HPV18 LCR luciferase reporter
- Reagents: siRNA pool against human genes, 40 nM
- Timing: 72 h
- Read-out: 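Per-well luciferase luminescence, z-scored on each plate against the plate mean and SD with control wells left out, then averaged across three replicate plates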
- Direction: mean z-score and z-score: higher = stronger reporter signal, weaker E2 silencing
- Active means: 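Mean z ≥ 2 together with z ≥ 2 in two or more of the three replicates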

The opening 4 entries, ahead of the listing:
target gene | pool no. | mean z-score | z-score, replicate A | z-score, replicate B | z-score, replicate C | Call
PPARGC1A (PPARG coactivator 1 alpha) | 1 | -1.23 | -1.24 | -1.14 | -1.3 | inactive
OVOL1 (ovo like transcriptional repressor 1) | 1 | -0.65 | -0.73 | -0.8 | -0.42 | inactive
CDH19 (cadherin 19) | 1 | -0.57 | -1.01 | -0.19 | -0.51 | inactive
TBC1D19 (TBC1 domain family member 19) | 1 | -0.09 | -0.24 | -0.45 | 0.42 | inactive

The listing, from the first entry:
target gene | pool no. | mean z-score | z-score, replicate A | z-score, replicate B | z-score, replicate C | Call
PPARGC1A (PPARG coactivator 1 alpha) | 1 | -1.23 | -1.24 | -1.14 | -1.3 | inactive
OVOL1 (ovo like transcriptional repressor 1) | 1 | -0.65 | -0.73 | -0.8 | -0.42 | inactive
CDH19 (cadherin 19) | 1 | -0.57 | -1.01 | -0.19 | -0.51 | inactive
TBC1D19 (TBC1 domain family member 19) | 1 | -0.09 | -0.24 | -0.45 | 0.42 | inactive
CSE1L (chromosome segregation 1 like) | 1 | 1.16 | 0.92 | 1.39 | 1.16 | inactive
ADARB1 (adenosine deaminase RNA specific B1) | 1 | 0.89 | 0.6 | 1.29 | 0.8 | inactive
FAM3A (FAM3 metabolism regulating signaling molecule A) | 1 | 0.39 | 0.19 | 0.14 | 0.85 | inactive
RPL28 (ribosomal protein L28) | 1 | -0.18 | -0.32 | -0.06 | -0.14 | inactive
SMAD7 (SMAD family member 7) | 1 | -0.31 | -0.11 | -0.26 | -0.57 | inactive
STAT6 (signal transducer and activator of transcription 6) | 1 | 0.6 | 0.66 | 0.36 | 0.78 | inactive
PUSL1 (pseudouridine synthase like 1) | 1 | -0.72 | -1.09 | -0.7 | -0.36 | inactive
OTOP2 (otopetrin 2) | 1 | -0.07 | -0.03 | -0.21 | 0.03 | inactive
CCL18 (C-C motif chemokine ligand 18) | 1 | 0.37 | 0.23 | 0.43 | 0.44 | inactive
MAST4 | 1 | 1.57 | 1.37 | 1.74 | 1.59 | inactive
MAST4 | 2 | -2.3 | -2.02 | -2.3 | -2.6 | inactive
LSM7 | 1 | -1.1 | -0.66 | -1.13 | -1.52 | inactive
NUDT3 (nudix hydrolase 3) | 1 | -1.48 | -1.52 | -1.41 | -1.5 | inactive
OR5H1 (olfactory receptor family 5 subfamily H member 1) | 1 | 0.28 | 0.04 | 0.57 | 0.23 | inactive
LOC157278 (retired record) | 1 | -1.16 | -1.19 | -1.24 | -1.04 | inactive
LOC388334 (retired record) | 1 | 0.45 | 0.75 | 0.25 | 0.35 | inactive
SLC38A7 | 1 | -0.57 | -1.01 | -0.84 | 0.15 | inactive
KRTAP5-1 (keratin associated protein 5-1) | 1 | -0.31 | -0.75 | -0.13 | -0.06 | inactive
TPMT (thiopurine S-methyltransferase) | 1 | 0.83 | 0.05 | 0.96 | 1.48 | inactive
COG2 (component of oligomeric golgi complex 2) | 1 | 1.66 | 1.49 | 1.81 | 1.66 | inactive
ZNF816 (zinc finger protein 816) | 1 | 0.95 | 1.19 | 0.94 | 0.7 | inactive
NPBWR2 (neuropeptides B and W receptor 2) | 1 | 0.39 | 0.35 | 0.34 | 0.48 | inactive
LAS1L (LAS1 like ribosome biogenesis factor) | 1 | -0.44 | -0.75 | -0.41 | -0.17 | inactive
LINC01120 (long independently transcribed non-coding RNA 1120) | 1 | 0.17 | 0.4 | -0.14 | 0.23 | inactive
PTPRF (protein tyrosine phosphatase receptor type F) | 1 | -0.49 | -0.49 | -0.55 | -0.44 | inactive
C3orf62 (chromosome 3 open reading frame 62) | 1 | 0.54 | 0.54 | 0.21 | 0.87 | inactive
TBC1D22A (TBC1 domain family member 22A) | 1 | 1.62 | 1.56 | 1.95 | 1.35 | inactive
FRMPD1 (FERM and PDZ domain containing 1) | 1 | -1.94 | -1.65 | -2.24 | -1.92 | inactive
GCNT4 (glucosaminyl (N-acetyl) transferase 4) | 1 | -1.2 | -0.8 | -1.31 | -1.48 | inactive
CCND2 (cyclin D2) | 1 | -0.77 | -1.04 | -0.25 | -1.03 | inactive
SLC26A4 | 1 | -0.45 | -0.6 | -0.56 | -0.2 | inactive
LINC03034 (long independently transcribed non-coding RNA 3034) | 1 | 0.49 | 0.23 | 0.43 | 0.8 | inactive
TNFSF10 (TNF superfamily member 10) | 1 | 1.17 | 1.23 | 1.14 | 1.14 | inactive
ANKRD39 (ankyrin repeat domain 39) | 1 | -1.06 | -0.6 | -1.31 | -1.27 | inactive
MTERF4 (mitochondrial transcription termination factor 4) | 1 | -1.03 | -0.9 | -1.04 | -1.15 | inactive
DNMT3A (DNA methyltransferase 3 alpha) | 1 | 0.43 | 0.77 | 0.54 | -0.02 | inactive
HOXB8 (homeobox B8) | 1 | 0.73 | 1.09 | 0.3 | 0.78 | inactive
SLPI (secretory leukocyte peptidase inhibitor) | 1 | 1.85 | 2.08 | 1.62 | 1.87 | inactive
ADSL (adenylosuccinate lyase) | 1 | 0.67 | -0.01 | 0.79 | 1.23 | inactive
CCDC88A (coiled-coil and HOOK domain protein 88A) | 1 | 1.66 | 1.79 | 1.5 | 1.68 | inactive
CCDC88A (coiled-coil and HOOK domain protein 88A) | 2 | -0.39 | -0.98 | -0.06 | -0.14 | inactive
VSIG10L2 (V-set and immunoglobulin domain containing 10 like 2) | 1 | -0.31 | 0.19 | -0.6 | -0.52 | inactive
PRC1 (protein regulator of cytokinesis 1) | 1 | 0.8 | 1.21 | 0.3 | 0.89 | inactive
TUBGCP2 (tubulin gamma complex component 2) | 1 | -1.39 | -0.88 | -1.54 | -1.75 | inactive
RELB (RELB proto-oncogene, NF-kB subunit) | 1 | -0.74 | -0.98 | -0.53 | -0.7 | inactive
GDPD3 (glycerophosphodiester phosphodiesterase domain containing 3) | 1 | 0.83 | 0.44 | 0.94 | 1.1 | inactive
QSER1 (glutamine and serine rich 1) | 1 | -0.12 | -0.01 | -0.22 | -0.15 | inactive
UCP2 (uncoupling protein 2) | 1 | -0.05 | -0.03 | 0.12 | -0.24 | inactive
PDGFRL (platelet derived growth factor receptor like) | 1 | -0.32 | -0.37 | -0.94 | 0.37 | inactive
MSI2 (musashi RNA binding protein 2) | 1 | 0.81 | 0.46 | 0.77 | 1.21 | inactive
SUN2 (Sad1 and UNC84 domain containing 2) | 1 | 0.52 | 0.29 | 0.78 | 0.5 | inactive
FLJ27243 (retired record) | 1 | 0.89 | 0.8 | 0.96 | 0.9 | inactive
PHF13 (PHD finger protein 13) | 1 | -0.14 | 0.3 | 0.07 | -0.79 | inactive
